Anti-infective test results gathered from many reports (values: NIAID ChemDB through PubChem).

All rows: tests in culture; organism: HIV-1; cell line: MT-2; read-out: EC50

Lines come from different laboratories, so protocols vary. ECn is the concentration giving n% inhibition of infection, replication or growth. An empty or dashed field is not shown.

compound,strain or isolate,mutations,method,setting,result
Cc1c(C(=O)O)cccc1-c1ccc(/C=C2\SC(=S)N(c3cccc(C(F)(F)F)c3)C2=O)o1,IIIB,-,p24,-,1.265 µM
CCSCCCCCCCCCCCC(=O)OC[C@H]1O[C@@H](n2cc(C)c(=O)[nH]c2=S)C[C@@H]1F,-,-,syncytia,-,~0.05 µM
CC(C)C1=C2[C@H]3CC[C@@H]4[C@@]5(C)CC[C@H](OC(=O)[C@H]6C[C@@H](C(=O)O)C6(C)C)C(C)(C)[C@@H]5CC[C@@]4(C)[C@]3(C)CC[C@@]2([C@@H](O)CNCC(C)(C)NC(=O)c2ccccc2Cl)CC1=O,92HT599,-,p24 / ELISA,-,<1 µM
Cc1ncc(-c2cnc(OCC(C)(F)F)c(F)c2)c(N2CCC(C)(C)CC2)c1[C@H](OC(C)(C)C)C(=O)O,NL4-3,-,luminescence,-,0.0029 µM
Cc1ccc(C(=O)NC(C)(C)CNC(=O)C[C@@]23CC[C@]4(C)[C@H](CC[C@@H]5[C@@]6(C)CC[C@H](OC(=O)[C@H]7C[C@@H](C(=O)O)C7(C)C)C(C)(C)[C@@H]6CC[C@]54C)C2=C(C(C)C)C(=O)C3)cn1,92HT599,-,p24 / ELISA,-,<1 µM
Cc1cc(C)c2ccc(-c3cccc([N+](=O)[O-])c3)nc2c1,NL4-3-Luc,-,luciferase,-,110 µM
CC(C)C1=C2[C@H]3CC[C@@H]4[C@@]5(C)CC[C@H](OC(=O)[C@H]6C[C@@H](C(=O)O)C6(C)C)C(C)(C)[C@@H]5CC[C@@]4(C)[C@]3(C)CC[C@@]2(CC(=O)NC(CCN)CNC(=O)c2ccc(Cl)cc2)CC1=O,92HT599,-,p24 / ELISA,-,<1 µM
Cc1cc2nc(-c3cccc([N+](=O)[O-])c3)ccc2c(C)c1C,NL4-3,-,MTT,-,>50 µM
CC(C)C1=C2[C@H]3CC[C@@H]4[C@@]5(C)CC[C@H](OC(=O)[C@H]6C[C@@H](C(=O)O)C6(C)C)C(C)(C)[C@@H]5CC[C@@]4(C)[C@]3(C)CC[C@@]2(CCNC(=O)c2ccc(Cl)cc2OCCN2CCCC2)CC1=O,92HT599,-,p24 / ELISA,-,<1 µM
Cc1ncc(-c2ccc(OCCOc3cccc(F)c3)cn2)c(N2CCC(C)(C)CC2)c1[C@H](OC(C)(C)C)C(=O)O,NL4-3,-,luminescence,-,0.0009 µM
Cc1cc(C)c2c(c1)N[C@H](c1cccc(N)c1)C[C@@H]2N1CCCC1=O,NL4-3,-,MTT,-,88.86 µM
COCCC(C)Oc1ccc(-c2cnc(C)c([C@H](OC(C)(C)C)C(=O)O)c2N2CCC(C)(C)CC2)nc1,NL4-3,-,luminescence,-,0.0008 µM
C=CC1=C(C)C2=NC1=CC1=NC(=Cc3[n-]c4c(c3C)=C([O-])[C@H](C(=O)OC)C=4C3=NC(=C2)[C@@H](C)[C@@H]3CCC(=O)OC/C=C(\C)CCCC(C)CCCC(C)CCCC(C)C)C(CC)=C1C.[Mg+2],IIIB,-,cytopathic effect / XTT,-,>80 µg/mL
COc1ccc2nc(-c3cccc(N)c3)ccc2c1,NL4-3,-,MTT,-,72.71 µM
COc1ccccc1N1C(=O)S/C(=C\c2ccc(-c3cccc(C(=O)O)c3)o2)C1=O,IIIB,-,p24,-,0.5453 µM
C=C1[C@H](n2cc(C)c(=O)[nH]c2=O)O[C@H](CO)[C@H]1O,-,-,cytopathic effect / MTT,-,>100 µM
CC1=C(CCC(=O)O)c2cc3nc(cc4[nH]c(cc5[nH]c(cc1n2)c(C)c5C(O)CO)c(C)c4C(O)CO)C(C)=C3CCC(=O)O,IIIB,-,cytopathic effect / XTT,-,38.2 µg/mL
Cc1ccc(N2C(=O)/C(=C/c3ccc(-c4ccc(Cl)c(C(=O)O)c4)o3)SC2=S)c(C)c1,IIIB,-,p24,-,0.298 µM
C=C1[C@H](n2cnc3c(=O)[nH]c(N)cc32)O[C@H](CO)[C@H]1O,-,-,cytopathic effect / MTT,-,>100 µM
Cc1cn([C@H]2C[C@H](F)[C@@H](COC(=O)CCCCCCCCCCCBr)O2)c(=S)[nH]c1=O,-,-,syncytia,-,~0.05 µM
Cc1cc(C(=O)NCC[C@@]23CC[C@]4(C)[C@H](CC[C@@H]5[C@@]6(C)CC[C@H](OC(=O)[C@H]7C[C@@H](C(=O)O)C7(C)C)C(C)(C)[C@@H]6CC[C@]54C)C2=C(C(C)C)C(=O)C3)n[nH]1,92HT599,-,p24 / ELISA,-,<1 µM
C=CC1=C(C)C2=NC1=CC1=NC(=CC3=C(C)C(=C([O-])[O-])C(=N3)C(CC(=O)O)=C3NC(=C2)C(C)C3CCC(=O)O)C(CC)=C1C.[Mg+2],IIIB,-,cytopathic effect / XTT,-,64.5 µg/mL
CC(C)C1=C2[C@H]3CC[C@@H]4[C@@]5(C)CC[C@H](OC(=O)[C@H]6C[C@@H](C(=O)O)C6(C)C)C(C)(C)[C@@H]5CC[C@@]4(C)[C@]3(C)CC[C@@]2(CC(=O)NC(CCCN)CNC(=O)c2ccc(Cl)cc2)CC1=O,92HT599,-,p24 / ELISA,-,<1 µM
O=S(=O)(O)c1ccc(-c2c3nc(c(-c4ccc(S(=O)(=O)O)cc4)c4ccc([nH]4)c(-c4ccc(S(=O)(=O)O)cc4)c4nc(c(-c5ccc(S(=O)(=O)O)cc5)c5ccc2[nH]5)C=C4)C=C3)cc1,IIIB,-,cytopathic effect / XTT,-,2.2 µg/mL
C=C1[C@H](n2cnc(N)nc2=O)O[C@H](CO)[C@H]1O,-,-,cytopathic effect / MTT,-,>100 µM
CC(C)C1=C2[C@H]3CC[C@@H]4[C@@]5(C)CC[C@H](OC(=O)[C@H]6C[C@@H](C(=O)O)C6(C)C)C(C)(C)[C@@H]5CC[C@@]4(C)[C@]3(C)CC[C@@]2(CCNCc2ccc(CN3CCN(C)CC3)cc2)CC1=O,92HT599,-,p24 / ELISA,-,<1 µM
COc1ccc(N2C(=O)/C(=C/c3ccc(-c4ccc(Cl)c(C(=O)O)c4)o3)SC2=S)cc1,IIIB,-,p24,-,3.047 µM
O=[N+]([O-])c1cccc(-c2ccc3ccccc3n2)c1,NL4-3-Luc,-,luciferase,-,19.66 µM
CCOCCCCOc1ccc(-c2cnc(C)c([C@H](OC(C)(C)C)C(=O)O)c2N2CCC(C)(C)CC2)nc1,NL4-3,-,luminescence,-,0.0007 µM
C=CC1=C(C)C2=NC1=CC1=NC(=C(CC)/C1=C\[O-])C=c1[n-]c3c(c1C)C(=O)[C@H](C(=O)OC)C=3C1=NC(=C2)[C@@H](C)[C@@H]1CCC(=O)OC/C=C(\C)CCCC(C)CCCC(C)CCCC(C)C.[Mg+2],IIIB,-,cytopathic effect / XTT,-,>80 µg/mL
Cc1ccc(OCCN(C)c2ccc(-c3cnc(C)c([C@H](OC(C)(C)C)C(=O)O)c3N3CCC(C)(C)CC3)cn2)cc1C,NL4-3,-,luminescence,-,0.004 µM
COc1ccc2nc(-c3cccc([N+](=O)[O-])c3)ccc2c1,NL4-3,Delta-VSV-Luc,luciferase,pseudotyped,18.57 µM
COCCCCCCCCCCCC(=O)OC[C@H]1O[C@@H](n2cc(C)c(=O)[nH]c2=S)C[C@@H]1F,-,-,syncytia,-,~0.05 µM
Cc1ncc(-c2ccc(OCCn3cccn3)cn2)c(N2CCC(C)(C)CC2)c1[C@H](OC(C)(C)C)C(=O)O,NL4-3,-,luminescence,-,0.0089 µM
COc1cc2c(c(OC)c1)[C@@H](N1CCCC1=O)C[C@@H](c1cccc([N+](=O)[O-])c1)N2,NL4-3,-,MTT,-,>50 µM

2 of the rows above, restated:

compound,strain or isolate,mutations,method,setting,result
Cc1cn([C@H]2C[C@H](F)[C@@H](COC(=O)CCCCCCCCCCCBr)O2)c(=S)[nH]c1=O,-,-,syncytia,-,~0.05 µM
Cc1ncc(-c2cnc(OCC(C)(F)F)c(F)c2)c(N2CCC(C)(C)CC2)c1[C@H](OC(C)(C)C)C(=O)O,NL4-3,-,luminescence,-,0.0029 µM